Article PMC2955668, “Self-association of the Lentivirus protein, Nef” (Retrovirology, 2010)

Target: T1, SF2-HFNefG2A (HIV-1 (SF2), G2A)
T1 construct: Not myristoylated; also called myristoylation-defective tagged Nef; source: 293T, transfected; in membrane and cytosolic fractions
Assay: co-IP; membrane-associated protein fraction of co-transfected 293T cells, solubilised in Buffer B plus 0.5% IGEPAL CA-630; anti-HA monoclonal antibody precipitates the HF-tagged Nef, untagged Nef detected by Western blot; fractional dimerization (FD) estimated from band densities assuming strict dimers and a binomial distribution
Details: partners not purified

B1: SF2Nef (natural protein)
chain: not shown
modifications: N-terminal myristate (the paper calls Nef a myristoylated protein)
notes: also called untagged SF2Nef; HIV-1 Nef, allele SF2; source: 293T, transfected (pCG or pCGCG vector); in membrane and cytosolic fractions, in intact cells or in clarified whole cell lysate
FD relative to that of SF2Nef with SF2-HFNef (FDG2A/FDSF2): 0.7
